This note sets out measurements from ChEMBL document CHEMBL1255200, “Exploration of piperidine-4-yl-aminopyrimidines as HIV-1 reverse transcriptase inhibitors. N-Phenyl derivatives with broad potency against resistant mutant viruses” (Bioorg Med Chem Lett, 2010).

For experiment [1], the target named is Human immunodeficiency virus type 1 reverse transcriptase (Human immunodeficiency virus 1, UniProt Q72547, Y188L). Description: Inhibition of HIV1 recombinant reverse transcriptase Y188L mutant by SPA heteropolymeric assay.
The target in experiment [2] is Human immunodeficiency virus type 1 reverse transcriptase (Human immunodeficiency virus 1, UniProt Q72547). Description: Inhibition of HIV1 recombinant wild type reverse transcriptase by SPA heteropolymeric assay.
Experiment [3] deals with Human immunodeficiency virus type 1 reverse transcriptase (Human immunodeficiency virus 1, UniProt Q72547, K103N/Y181C). Put plainly: Inhibition of HIV1 recombinant reverse transcriptase K103N/Y181C double mutant by SPA heteropolymeric assay.

`Cc1cc(C#N)cc(C)c1Oc1nc(Nc2ccc(C#N)cc2)nc(N)c1Br` [ETRAVIRINE]: the IC50 in experiment [1] was 108 nM; in experiment [2] it was 26 nM; in experiment [3], 19 nM.
